Results published in PMC7510464 (Bioengineering & Translational Medicine, 2020).

Assay: general procedure: Fmoc solid-phase peptide synthesis; Rink Amide resin (0.52 mmol g^-1)
Conditions: whole synthesis

## [Glu]^3-[Lys]^5-[Glu]^12-Pol-CP-NH2
  final HPLC purity: 99%

## [Phe]^9-Pol-CP-NH2
  final HPLC purity: 99%

## [Gly]^1-Pol-CP-NH2
  final HPLC purity: 99%

## [Lys]^4-Pol-CP-NH2
  final HPLC purity: 98%

## [Leu]^5-[Lys]^9-Pol-CP-NH2
  final HPLC purity: 99%

## [Lys]^7-Pol-CP-NH2
  final HPLC purity: 99%

## Pol-CP-NH2
  final HPLC purity: 99%

## Des[Leu]^12-Pol-CP-NH2
  final HPLC purity: 99%

## [Lys]^5-Pol-CP-NH2
  final HPLC purity: 99%
